Changes are numbered by the printed parent chain. For some assays here: Tags and fusion partners may be left off the protein sequences shown. For at least one entry, the source does not settle the construct or the ends of the probe. For some assays here: A negative result means that nothing was seen under these conditions. For some assays here: At least one verdict was read from the data and is not stated in words by the source.
Key:
[1] = tested on: T1, SmpO408 (Staphylococcus aureus M0408); assay: SPR (ReDCaT); settings: 250 mM NaCl, 10 mM HEPES, 3 mM EDTA, 0.05% Tween 20, NaCl 150 mM (SmpO49 screens), 300 mM (SmpO45, SmpO408, SmpOUNa screens) or 250 mM (Table S4), pH and temperature not stated, high values mean tight binding, recombinant protein, protein details: His6-TEV, cleaved, counted as no binding
T1 sequence (looked up, limits assumed): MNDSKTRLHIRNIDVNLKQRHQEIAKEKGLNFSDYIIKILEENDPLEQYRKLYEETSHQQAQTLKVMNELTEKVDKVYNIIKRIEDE

[2] = tested on: T2, SmpO49 (Staphylococcus aureus plasmid pWBG749); assay: SPR (ReDCaT); settings: 10 mM HEPES, 3 mM EDTA, 0.05% Tween 20, NaCl 150 mM (SmpO49 screens), 300 mM (SmpO45, SmpO408, SmpOUNa screens) or 250 mM (Table S4), pH and temperature not stated, high values mean tight binding, recombinant protein, protein details: His6-TEV, cleaved, counted as no binding
T2 sequence (looked up, limits assumed): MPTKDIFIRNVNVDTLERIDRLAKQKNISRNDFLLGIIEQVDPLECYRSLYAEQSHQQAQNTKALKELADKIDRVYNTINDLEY

[3] = tested on: T3, SmpO49-F7K (Staphylococcus aureus plasmid pWBG749); assay: SPR (ReDCaT); settings: 250 mM NaCl, 10 mM HEPES, 3 mM EDTA, 0.05% Tween 20, NaCl 150 mM (SmpO49 screens), 300 mM (SmpO45, SmpO408, SmpOUNa screens) or 250 mM (Table S4), pH and temperature not stated, high values mean tight binding, recombinant protein, protein details: His6-TEV, cleaved, counted as no binding
T3 sequence (looked up, limits assumed): T2 sequence (looked up, limits assumed) with F7K

[4] = tested on: T4, SmpO45 (Staphylococcus aureus plasmid pWBG745); assay: SPR; settings: 250 mM NaCl; SPR: 10 mM HEPES, 150-300 mM NaCl, 3 mM EDTA, 0.05% Tween 20, 1 uM protein (pH, temperature not given); recombinant protein; protein details: His6-TEV, cleaved
T4 sequence (looked up, limits assumed): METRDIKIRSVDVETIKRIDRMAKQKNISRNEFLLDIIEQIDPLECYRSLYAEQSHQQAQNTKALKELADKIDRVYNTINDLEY

[5] = tested on: SmpO45-K7F (Staphylococcus aureus plasmid pWBG745); assay: SPR; settings: SPR: 10 mM HEPES, 150-300 mM NaCl, 3 mM EDTA, 0.05% Tween 20, 1 uM protein (pH, temperature not given); recombinant protein; protein details: His6-TEV, cleaved
[6] = tested on: T3, SmpO49-F7K (Staphylococcus aureus plasmid pWBG749); assay: SPR; settings: SPR: 10 mM HEPES, 150-300 mM NaCl, 3 mM EDTA, 0.05% Tween 20, 1 uM protein (pH, temperature not given), recombinant protein, protein details: His6-TEV, cleaved
SmpOUNa [7] = tested on: T5, SmpOUNa; assay: SPR; settings: SPR: 10 mM HEPES, 150-300 mM NaCl, 3 mM EDTA, 0.05% Tween 20, 1 uM protein (pH, temperature not given), recombinant protein, protein details: His6-TEV, cleaved
T5 sequence (looked up, limits assumed): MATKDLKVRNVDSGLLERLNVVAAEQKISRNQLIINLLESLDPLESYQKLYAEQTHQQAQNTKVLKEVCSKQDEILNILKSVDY

[8] = tested on: T2, SmpO49 (Staphylococcus aureus plasmid pWBG749); assay: SPR; settings: SPR: 10 mM HEPES, 150-300 mM NaCl, 3 mM EDTA, 0.05% Tween 20, 1 uM protein (pH, temperature not given), recombinant protein, protein details: His6-TEV, cleaved
[9] = tested on: T4, SmpO45 (Staphylococcus aureus plasmid pWBG745); assay: SPR (ReDCaT); settings: 10 mM HEPES, 3 mM EDTA, 0.05% Tween 20, NaCl 150 mM (SmpO49 screens), 300 mM (SmpO45, SmpO408, SmpOUNa screens) or 250 mM (Table S4), pH and temperature not stated, high values mean tight binding, recombinant protein, protein details: His6-TEV, cleaved, counted as no binding
[10] = tested on: T1, SmpO408 (Staphylococcus aureus M0408); assay: SPR; settings: SPR: 10 mM HEPES, 150-300 mM NaCl, 3 mM EDTA, 0.05% Tween 20, 1 uM protein (pH, temperature not given), recombinant protein, protein details: His6-TEV, cleaved
SmpOUNa [11] = tested on: T5, SmpOUNa; assay: SPR (ReDCaT); settings: 250 mM NaCl, 10 mM HEPES, 3 mM EDTA, 0.05% Tween 20, NaCl 150 mM (SmpO49 screens), 300 mM (SmpO45, SmpO408, SmpOUNa screens) or 250 mM (Table S4), pH and temperature not stated, high values mean tight binding, recombinant protein, protein details: His6-TEV, cleaved, counted as no binding
[12] = tested on: T6, SmpOSep (Staphylococcus epidermidis VCU120); assay: SPR; settings: 250 mM NaCl; SPR: 10 mM HEPES, 150-300 mM NaCl, 3 mM EDTA, 0.05% Tween 20, 1 uM protein (pH, temperature not given); recombinant protein; protein details: His6-TEV, cleaved
T6 sequence (looked up, limits assumed): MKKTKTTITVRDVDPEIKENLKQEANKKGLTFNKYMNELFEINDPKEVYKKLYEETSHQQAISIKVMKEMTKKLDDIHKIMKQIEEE

[13] = tested on: T6, SmpOSep (Staphylococcus epidermidis VCU120); assay: SPR (ReDCaT); settings: 250 mM NaCl, 10 mM HEPES, 3 mM EDTA, 0.05% Tween 20, NaCl 150 mM (SmpO49 screens), 300 mM (SmpO45, SmpO408, SmpOUNa screens) or 250 mM (Table S4), pH and temperature not stated, high values mean tight binding, recombinant protein, protein details: His6-TEV, cleaved, counted as no binding
[14] = letters put together from the description
[15] = 250 mM NaCl, letters put together from the description
[16] = 150 mM NaCl, letters put together from the description
[17] = 300 mM NaCl, letters put together from the description

## AAAATGGGTACATATT (double strand) [ossBUNa]
[1]; [14]
  binding signal: 0 %Rmax
[2]; [15]
  binding signal: 0.1 %Rmax
[3]; [14]
  binding signal: 0 %Rmax

## ATTGTGGGGTCACTTT / AAAGTGACCCCACAATCCTACCCTACGTCCTCCTGC [ossA45]
[4]
  binding result: binds
[5]
  binding result: no binding
[6]; as strong as SmpO45
  binding result: binds
SmpOUNa [7]; 250 mM NaCl
  binding result: binds

## TTTGCCAGACCTATCATTGTCCGATGATAG (double strand) [OT49.9]
[2]; [16]
  binding signal: 0 %Rmax

## TTTATGATATCACTAT / ATAGTGATATCATAAACCTACCCTACGTCCTCCTGC [ossA49]
[5]
  binding result: no binding
[8]; 250 mM NaCl
  binding result: binds
[6]
  binding result: no binding

## AACCCTTGAAATGGCTGGCTTTGCCAGCCA (double strand) [OT45.7]
[9]; [17]
  binding signal: 0.0787 %Rmax

## GTTTTTATGATATCACTATGAAATGTCCTA / TAGGACATTTCATAGTGATATCATAAAAACCCTACCCTACGTCCTCCTGC [OT49.4]
[8]; 150 mM NaCl
  binding result: binds

## TATCACTATGAAATGTCCTAAAACCCTTGG (double strand) [OT49.5]
[2]; [16]
  binding signal: 0 %Rmax

## TTATAGGCGCCTAATA / TATTAGGCGCCTATAACCTACCCTACGTCCTCCTGC [ossA408]
[10]; 250 mM NaCl
  binding result: binds
[5]
  binding result: no binding

## ATTGTGGGGTCACTTT (double strand) [ossA45]
[2]; 250 mM NaCl
  binding signal: 0.1 %Rmax

## ATATAGTGTCACAAAAATGTGACACTAGGT (double strand) [OT49.1]
[2]; [16]
  binding signal: 0 %Rmax

## CGGTTTTATAGGCGCCTAATAAAAACCTCT / AGAGGTTTTTATTAGGCGCCTATAAAACCGCCTACCCTACGTCCTCCTGC [OT408.5]
[10]; 300 mM NaCl
  binding result: binds

## TTTATGATATCACTAT (double strand) [ossA49]
[1]
  binding signal: 0.1 %Rmax
[9]; 250 mM NaCl
  binding signal: 0 %Rmax
[3]
  binding signal: 0 %Rmax
SmpOUNa [11]
  binding signal: 0 %Rmax

## TTTGCATACATTTAAA / TTAAATGTATGCAAACCTACCCTACGTCCTCCTGC [ossASep]
[5]
  binding result: no binding
[12]
  binding result: binds

## TTTATGATTTCACTAT (double strand) [ossA49-9]
[2]; [16]
  binding signal: 0.0202 %Rmax

## ATATAGTGTCACAAAACTGTGACACTATAG (double strand) [OT45.1]
[9]; [17]
  binding signal: 0.144 %Rmax

## TTTATGATAACACTAT (double strand) [ossA49-10]
[2]; [16]
  binding signal: 0.0987 %Rmax

## ATGGCTGGCTTTGCCAGCCACCCCATAAAA (double strand) [OT45.8]
[9]; [17]
  binding signal: 0.18 %Rmax

## AATGTCTGGCTTTGCCAGACCTATCATTGT (double strand) [OT49.8]
[2]; [16]
  binding signal: 0 %Rmax

## TAAATGTATGCATATT (double strand) [ossBSep]
[1]; [14]
  binding signal: 0 %Rmax
[9]; [15]
  binding signal: 0.3 %Rmax
[2]; [15]
  binding signal: 0.1 %Rmax
[3]; [14]
  binding signal: 0 %Rmax
SmpOUNa [11]; [14]
  binding signal: 0 %Rmax

## GTGACCCCCATAAGAT (double strand) [ossAUNa]
[2]; 250 mM NaCl
  binding signal: 0 %Rmax
[13]
  binding signal: 0 %Rmax

## AAACCCTTGGAATGTCTGGCTTTGCCAGAC (double strand) [OT49.7]
[2]; [16]
  binding signal: 0.0706 %Rmax

## AAATGTCCTAAAACCCTTGGAATGTCTGGC (double strand) [OT49.6]
[2]; [16]
  binding signal: 0 %Rmax

## TTTATGTTATCACTAT (double strand) [ossA49-7]
[2]; [16]
  binding signal: 0.101 %Rmax

## ATTGTGGCGTCACTTT (double strand) [ossA45-8]
[9]; [17]
  binding signal: 0.313 %Rmax

## GTGACCCCCATAAGAT / ATCTTATGGGGGTCACCCTACCCTACGTCCTCCTGC [ossAUNa]
[5]
  binding result: no binding
SmpOUNa [7]; 250 mM NaCl
  binding result: binds

## CCGATGATAGCAAATT (double strand) [ossB49]
[1]; [14]
  binding signal: 0 %Rmax
[9]; [15]
  binding signal: 0 %Rmax
[3]; [14]
  binding signal: 0 %Rmax
SmpOUNa [11]; [14]
  binding signal: 0 %Rmax

## TTATAGGCGCCTAATA (double strand) [ossA408]
[9]; 250 mM NaCl
  binding signal: 0 %Rmax
[2]; 250 mM NaCl
  binding signal: 0 %Rmax
[3]
  binding signal: 0 %Rmax
[13]
  binding signal: 0 %Rmax
SmpOUNa [11]
  binding signal: 0 %Rmax

## ACAAAACTGTGACACTATAGTTTATTGTGG (double strand) [OT45.2]
[9]; [17]
  binding signal: 0.0962 %Rmax

## AATATGGGGTCATATT (double strand) [ossB45]
[2]; [15]
  binding signal: 0.2 %Rmax

## TTAATTTTTGTGACCCCCATAAGATAAATG / CATTTATCTTATGGGGGTCACAAAAATTAACCTACCCTACGTCCTCCTGC [OTUNA.4]
SmpOUNa [7]; 300 mM NaCl
  binding result: binds

## TTTGCATACATTTAAA / TTAAATGTATGCAAA [ossASep]
[1]
  binding signal: 0 %Rmax
[9]; 250 mM NaCl
  binding signal: 0 %Rmax
[2]; 250 mM NaCl
  binding signal: 0 %Rmax
[3]
  binding signal: 0 %Rmax
SmpOUNa [11]
  binding signal: 0 %Rmax

## ATTGTGCGGTCACTTT (double strand) [ossA45-7]
[9]; [17]
  binding signal: 0.194 %Rmax

## AATTCTTTAAAACCCTTGAAATGGCTGGCT (double strand) [OT45.6]
[9]; [17]
  binding signal: 0.136 %Rmax

## TAATAGGTGGCAAATT (double strand) [ossB408]
[2]; [15]
  binding signal: 0.2 %Rmax
[3]; [14]
  binding signal: 0 %Rmax
[13]; [14]
  binding signal: 0.1 %Rmax
SmpOUNa [11]; [14]
  binding signal: 0 %Rmax

## TTTATGAAATCACTAT (double strand) [ossA49-8]
[2]; [16]
  binding signal: 0.00478 %Rmax

## ACAAAAATGTGACACTAGGTGTTTTTATGA (double strand) [OT49.2]
[2]; [16]
  binding signal: 0 %Rmax

Reference: paper PMC8136818
